Pooled drug test results. Numbers come from NIAID ChemDB, via PubChem.

Common to all: growth or infection tests; agent: HIV-1; cell line: PBMC; endpoint: EC50

Rows are shuffled and stem from different studies. ECn is the concentration giving n% inhibition of infection, replication or growth. An empty or dashed field is not shown.

compound,strain or isolate,mutations,method,conditions,result
Nc1ccn([C@@H]2C=C(F)[C@H](CO)O2)c(=O)n1,BRU,-,RT activity,-,<0.14 µM
Nc1ncnc2c1ncn2[C@@H]1C=C(CO)[C@@H](O)[C@H]1O,A018 PRE-AZT,-,p24,-,0.0178 µM
O=S(=O)(O)OCC1OC2OC3C(COS(=O)(=O)O)OC(OC4C(COS(=O)(=O)O)OC(OC5C(COS(=O)(=O)O)OC(OC6C(COS(=O)(=O)O)OC(OC7C(COS(=O)(=O)O)OC(OC8C(COS(=O)(=O)O)OC(OC1C(OS(=O)(=O)O)C2OS(=O)(=O)O)C(OS(=O)(=O)O)C8OS(=O)(=O)O)C(OS(=O)(=O)O)C7OS(=O)(=O)O)C(OS(=O)(=O)O)C6OS(=O)(=O)O)C(OS(=O)(=O)O)C5OS(=O)(=O)O)C(OS(=O)(=O)O)C4OS(=O)(=O)O)C(OS(=O)(=O)O)C3OS(=O)(=O)O,-,-,p24,-,4.5 µg/mL
Clc1ccc(C2=CC(c3ccccc3)N(c3ccccc3Cl)N2)cc1,89BZ167,-,RT activity,-,>100 µM
C[C@H]1[C@H](O)[C@@H](C)/C=C/C=C/C=C/C=C/C=C/C=C/C=C/[C@H](O[C@@H]2O[C@H](C)[C@@H](O)[C@H](N)[C@@H]2O)C[C@@H]2O[C@](O)(C[C@@H](O)C[C@@H](O)CC[C@H](O)[C@@H](O)C[C@@H](O)CC(=O)O[C@H]1C)C[C@H](O)[C@H]2C(=O)O,JV1083 CLADE G R5 (NSI),-,p24 / RT activity,-,1.3 µM
N=C1Sc2ccccc2C2=NCCCN12,92HT599,-,β-galactosidase,-,0.55 µM
Nc1nc(NC2CC2)c2ncn([C@H]3C=C[C@@H](CO)C3)c2n1,IIIB,-,p24,-,0.63 µM
C=Cn1cc(C(=O)O)c(=O)c2cc(N)c(N3CCN(c4ccccn4)CC3)cc21,IIIB,-,-,-,0.17 µM
CCCc1cc(=O)oc2c3c(c4c(c12)OC(C)(C)CC4)O[C@@H](C)[C@H](C)[C@@H]3O,CLADE C,-,RT activity,-,0.06 µM
O=[N+]([O-])c1ccc(/C=C/c2ccc(N=Nc3ccc(/C=C/c4ccc([N+](=O)[O-])cc4S(=O)(=O)O)c(S(=O)(=O)O)c3)cc2S(=O)(=O)O)c(S(=O)(=O)O)c1,LAV,-,-,-,0.002 µM
CO[C@H]1C[C@@H]2CC[C@@H](C)[C@@](O)(O2)C(=O)C(=O)N2CCCC[C@H]2C(=O)O[C@H]([C@H](C)C[C@@H]2CC[C@@H](O)[C@H](OC)C2)CC(=O)[C@H](C)/C=C(\C)[C@@H](O)[C@@H](OC)C(=O)[C@H](C)C[C@H](C)/C=C/C=C/C=C/1C,93BR029 R5 clinical isolate,-,p24,-,<0.001 µM
CC1=CC[C@]2(C)C[C@H](O)[C@@]3(C)[C@H](C(C(C)C)=C[C@@H]3O)[C@H]2CC1,LAV,-,RT activity,-,>100 µM
C=Cn1cc(C(=O)O)c(=O)c2ccc(N3CCN(c4cccc(C(F)(F)F)c4)CC3)cc21,IIIB,-,-,-,0.84 µM
COP(=O)(c1cc(C)cc(CCC#N)c1)c1c(C(N)=O)[nH]c2ccc(Cl)c(F)c12,Clinical isolate,K103N/Y181C,-,-,0.0027 µM
C#Cc1cn([C@H]2C[C@H](O)[C@@H](CO)O2)c(=O)[nH]c1=O,LAI,-,-,-,0.61 µM
COC(=O)C(C)(C)NP(=O)(OC[C@@H]1OC[C@H](n2cc(C)c(=O)[nH]c2=O)O1)Oc1cccc2ccccc12,LAI,RT-M184V,RT activity,-,0.38 µM
Cn1c2c(c(=O)n(C)c1=O)S[C@H]1[C@@H](O2)O[C@H](COc2ccccc2)[C@@H](OCc2ccccc2)[C@@H]1OCc1ccccc1,LAI,-,RT activity,-,>100 µM
CN(C)CCSc1nccc(-c2cccn2C)n1,LAV,-,RT activity,-,41.6 µM
COC(=O)[C@H](C)NP(=O)(OC[C@@H]1C=C[C@H](n2cc(C)c(=O)[nH]c2=O)O1)Oc1c(OC)cccc1OC,IIIB WT,-,p24,-,0.006 µM
CCCCCCCC/C=C\CCCCCCCCOP(=O)(N[C@@H](C)C(=O)OC)OC[C@@H]1OC[C@H](n2cc(C)c(=O)[nH]c2=O)O1,LAI,RT-M184V,RT activity,-,4.9 µM
CC(C)CCC[C@@H](C)[C@H]1CCC2C3CCC4C[C@@H](O[C@H]5O[C@H](COS(=O)(=O)[O-])[C@@H](OS(=O)(=O)[O-])[C@H](OS(=O)(=O)[O-])[C@@H]5O[C@H]5O[C@H](COS(=O)(=O)[O-])[C@@H](OS(=O)(=O)[O-])[C@H](O[C@H]6O[C@H](COS(=O)(=O)[O-])[C@@H](OS(=O)(=O)[O-])[C@H](O[C@H]7O[C@H](COS(=O)(=O)[O-])[C@@H](OS(=O)(=O)[O-])[C@H](OS(=O)(=O)[O-])[C@@H]7OS(=O)(=O)[O-])C6OS(=O)(=O)[O-])[C@@H]5OS(=O)(=O)[O-])CC[C@]4(C)C3CC[C@@]21C,HI92-206 isolate (X4/R5),-,p24 / ELISA / antigen,-,24 µg/mL
N=C1Sc2ccccc2C2=NCCCN12,92HT599,-,ELISA,-,0.55 µM
C=C(C)[C@@H]1CC[C@]2(C(=O)NCCCCCCCC(=O)N[C@@H](CC(C)C)[C@@H](O)CC(=O)O)CC[C@]3(C)[C@H](CC[C@@H]4[C@@]5(C)CC[C@H](O)C(C)(C)[C@@H]5CC[C@]43C)[C@@H]12,APO 595,-,p24 / RT activity,-,0.2 µM
CN(C)CCSc1nc(-c2ccncc2)cs1,LAV,-,RT activity,-,33.3 µM
Oc1ccc(-c2nc3c4cc(I)ccc4c4ccccc4c3[nH]2)cc1,89BZ167,-,RT activity,-,9.44 µM
Cc1cn([C@H]2C[C@H](N=[N+]=[N-])[C@@H](CO)O2)c(=O)[nH]c1=O,SF162,-,p24 / ELISA,-,0.085 µM
Cc1ccc(NC(=O)CN2CCN(Cc3nc(-c4ccc(F)cc4)no3)CC2)cc1,89BZ167,-,RT activity,-,12.3 µM
NS(=O)(=O)c1ccc(Cc2ccc3c(c2)NC(=O)N[C@]3(C#CC2CC2)C(F)(F)F)cc1,-,-,GFP,pseudotyped,0.193 µM
C=CCN(C(=O)OCc1ccc([N+](=O)[O-])cc1)C1CCN(C[C@H]2CN(C(=O)C3CCCC3)C[C@]2(O)c2ccccc2)CC1,JRFL R5 CLADE B,-,p24,-,0.0306 µM
Cn1c2c(c(=O)n(C)c1=O)S[C@@H]1[C@H](O2)O[C@H](COc2ccccc2)[C@@H](OCc2ccccc2)[C@@H]1OCc1ccccc1,LAI,-,RT activity,-,>100 µM
C#Cc1cnc(C(C)=O)nc1C(C)=O,LAI,-,-,-,>100 µM
COC(=O)[C@H](C)NP(=O)(OC[C@@H]1C=C[C@H](n2cc(C)c(=O)[nH]c2=O)O1)Oc1ccccc1Br,RTMDR,RT M41L L74V T215Y V106N,p24,-,0.523 µM
CC(=O)OC[C@H]1O[C@@H]2Oc3[nH]c(=O)[nH]c(=O)c3S[C@@H]2[C@@H](OC(C)=O)[C@H]1OC(C)=O,LAI,-,RT activity,-,>100 µM
COC[C@@H](c1ccc(C(F)(F)F)cc1)N1CCN(C2(C)CCN(C(=O)c3c(C)ncnc3C)CC2)C[C@@H]1C,S,-,-,-,0.00073 µM
CS(=O)c1ccc(-c2nc(-c3ccc(F)cc3)c(-c3ccncc3)[nH]2)cc1,BaL,-,p24,-,>1 µM
CN(C)CCSc1nccc(-c2nccs2)n1,LAV,-,RT activity,-,>100 µM
Clc1cc(CN2CCCNCCNCCCNCC2)cc(Cl)n1,R5 X4 clinical isolate #16,-,p24,-,1.8 µM
CCCCCCCCCCCCCCCCOCCCOP(=O)(N[C@@H](C)C(=O)OC)OC[C@@H]1OC[C@H](n2cc(C)c(=O)[nH]c2=O)O1,LAI,RT-M184V,RT activity,-,2.7 µM
Nc1nccc2c1ncn2[C@@H]1C=C(CO)[C@@H](O)[C@H]1O,18199 unpaired,-,p24,-,0.015 µM
O=C(c1ccc(F)cc1)c1ccc(-c2nc(-c3ccccc3O)[nH]c2-c2ccc(F)cc2)cc1,89BZ167,-,RT activity,-,>100 µM
CCO[C@@H]1Cc2cc(C(F)(F)F)ccc2C1N1CCN(C2(C)CCN(C(=O)c3c(C)ncnc3C)CC2)C[C@@H]1C,IIIB,-,p24,-,>1 µM
CC1=CC[C@]2(C)CC[C@@]3(C)[C@H](C(C(C)C)=C[C@@H]3O)[C@H]2CC1,LAV,-,RT activity,-,>100 µM
COC(=O)[C@H](C)NP(=O)(OC[C@@H]1C=C[C@H](n2cc(C)c(=O)[nH]c2=O)O1)Oc1ccc(Br)cc1Cl,IIIB WT,-,p24,-,0.001 µM
O=c1[nH]c(=O)n([C@H]2C[C@H](O)[C@@H](CO)O2)cc1C12B3B4B5B6B(B3B1B42)B1B5C61,LAI,-,-,-,69.8 µM
COC(=O)[C@H](NP(=O)(OC[C@@H]1OC[C@H](n2cc(C)c(=O)[nH]c2=O)O1)Oc1ccccc1)C(C)C,LAI,RT-M184V,RT activity,-,18 µM
Cc1ccc(-c2cccc(-c3ccc(CNCCN(C)C)cc3)n2)cc1,LAV,-,RT activity,-,4 µM
COC(=O)[C@@H](C)NP(=O)(OC[C@@H]1OC[C@H](n2cc(C)c(=O)[nH]c2=O)O1)Oc1ccccc1,LAI,RT-M184V,RT activity,-,4.5 µM
CN1CCN(CCSc2nnc(-c3cc4ccccc4s3)c3ccccc23)CC1,LAV,-,RT activity,-,17.2 µM
CC(=O)O[C@@H]1[C@@H](OC(C)=O)[C@H](C)O[C@@H]2Oc3c(c(=O)n(C)c(=O)n3C)S[C@@H]21,LAI,-,RT activity,-,29 µM
Cc1ccc(-c2ccc3c(c2)C=C(C(=O)Nc2ccc(C[N+](C)(C)C4CCOCC4)cc2)CCC3)cc1,Du422 CLADE C,-,p24,-,<1 µM
CN(C)CCNCc1ccc(-c2cccc(-c3ccc(CNCCN(C)C)cc3)n2)cc1,LAV,-,RT activity,-,3.7 µM
Cc1cn([C@H]2C[C@H](N=[N+]=[N-])[C@@H](CO)O2)c(=O)[nH]c1=O,302506 (subtype B),-,RT activity,-,0.00045 µM

Again, the opening 4 rows:

compound | strain or isolate | mutations | method | conditions | result
Nc1ccn([C@@H]2C=C(F)[C@H](CO)O2)c(=O)n1 | BRU | - | RT activity | - | <0.14 µM
Nc1ncnc2c1ncn2[C@@H]1C=C(CO)[C@@H](O)[C@H]1O | A018 PRE-AZT | - | p24 | - | 0.0178 µM
O=S(=O)(O)OCC1OC2OC3C(COS(=O)(=O)O)OC(OC4C(COS(=O)(=O)O)OC(OC5C(COS(=O)(=O)O)OC(OC6C(COS(=O)(=O)O)OC(OC7C(COS(=O)(=O)O)OC(OC8C(COS(=O)(=O)O)OC(OC1C(OS(=O)(=O)O)C2OS(=O)(=O)O)C(OS(=O)(=O)O)C8OS(=O)(=O)O)C(OS(=O)(=O)O)C7OS(=O)(=O)O)C(OS(=O)(=O)O)C6OS(=O)(=O)O)C(OS(=O)(=O)O)C5OS(=O)(=O)O)C(OS(=O)(=O)O)C4OS(=O)(=O)O)C(OS(=O)(=O)O)C3OS(=O)(=O)O | - | - | p24 | - | 4.5 µg/mL
Clc1ccc(C2=CC(c3ccccc3)N(c3ccccc3Cl)N2)cc1 | 89BZ167 | - | RT activity | - | >100 µM